The text below walks through data of patent US20210038681A1, “PHARMACEUTICAL COMPOSITION FOR TREATING VIRAL HEPATITIS C” (priority 2018, published 2021).

The test system of assay [1] is HCV 1a L31V + Y93H replicon. Description: microbe, parasite or virus in culture. The settings on record: Hepatitis C virus, Huh-7, read-out: Mean EC50 (nM) ± SD.
Assay [2] deals with HCV 1a L31V + Y93H replicon. Conditions: read-out: Mean EC50 (nM) ± SD; HCV 1a variant L31V + Y93H; Huh7-Lunet cells.

Structures are written as SMILES. Read-outs that look alike come from different tables or passages of the source.

For the compound `CC(C)(C)OC(=O)N[C@H]1CCCCC/C=C\[C@@H]2C[C@@]2(C(=O)NS(=O)(=O)C2CC2)NC(=O)[C@@H]2C[C@@H](OC(=O)N3Cc4cccc(F)c4C3)CN2C1=O` [ASC08, Danoprevir], the concentration for a half-maximal effect (EC50) (as a rule, the concentration that produces a half-maximal response) in assay [1] turned out to be 4.1 nM. Take `COC(=O)N[C@H](C(=O)N1CCC[C@H]1c1ncc(-c2ccc3cc(-c4ccc5nc([C@@H]6CCCN6C(=O)[C@@H](NC(=O)OC)C(C)C)[nH]c5c4)ccc3c2)[nH]1)C(C)C` [ASC16, Ravidasvir]: the concentration giving a half-maximal response (EC50) in assay [1] worked out at 1160 nM.

With `CNC(=O)c1c(-c2ccc(F)cc2)oc2cc(N(CCO)S(C)(=O)=O)c(C3CC3)cc12` [HCV-796], the concentration for a half-maximal effect (EC50) in assay [1] turned out to be 11.4 nM. For `C[C@@]1(F)[C@H](O)[C@@H](CO)O[C@H]1n1ccc(N)nc1=O` [PSI-6130], in assay [2], the EC50 stood at 548 nM.
